Measurements taken from patent US20210389324.

Recombinant CHIKV nsP2 protease
cleavage of CFP/YFP substrates, SDS-PAGE (FIG. 2F) (CFP-V12-YFP): the CHIKV nsP2 protease cut only Old World substrates
cleavage of CFP/YFP substrates, SDS-PAGE (FIG. 2F) (CFP-V34-YFP): the CHIKV nsP2 protease cut only Old World substrates
